PubChem BioAssay AID1224833 | University of Georgia | 2016
Aim: 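Host factors restraining rotavirus as candidate antiviral genes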 (primary screen). Cells: monkey MA104 kidney cells. Reagent: siRNA pool against human genes, 50 nM. Time to read-out: 48 h knock-down before infection; read 24 h after infection. Conditions: infection with rotavirus strain RV3 two days after transfection; infectious dose for this stage not given. Measured: 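Rotavirus antigen per well by fluorescent immunoassay, normalised to non-targeting control wells on each plate and given as a standard z-score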. Scale: z-score vs non-targeting control: higher = more rotavirus replication than with non-targeting control. Hit rule: In these data the active calls have z-score vs non-targeting control at about -1 or lower, or at about 1 or higher. Calls: active = z-score beyond 1 either way; inactive = z-score within 1 of zero.
Here is one part, drawn at random, of about 12,000 reagents tested. About 5,600 of them (46%) were called active. 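Active calls cover z-scores past 1 in both directions, so they include lowered as well as raised rotavirus replication.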

gene,z-score vs non-targeting control,Outcome
CREB3L2 (cAMP responsive element binding protein 3 like 2),-0.102,inactive
"NICN1 (nicolin 1, tubulin polyglutamylase complex subunit)",-0.914,inactive
RNASET2 (ribonuclease T2),-0.887,inactive
FUOM (fucose mutarotase),-0.991,inactive
FAM124A (family with sequence similarity 124 member A),-1.37,active
FHIP1B (FHF complex subunit HOOK interacting protein 1B),0.812,inactive
PACS1 (phosphofurin acidic cluster sorting protein 1),-0.629,inactive
STBD1 (starch binding domain 1),-0.707,inactive
POLR2C (RNA polymerase II subunit C),0.745,inactive
IFI6 (interferon alpha inducible protein 6),-0.385,inactive
SLC35D3,-0.29,inactive
STEAP3 (STEAP3 metalloreductase),-0.882,inactive
TMCC2 (transmembrane and coiled-coil domain family 2),0.404,inactive
MITD1 (microtubule interacting and trafficking domain containing 1),-0.635,inactive
DDX17 (DEAD-box helicase 17),1.94,active
MEGF9 (multiple EGF like domains 9),0.41,inactive
HNRNPH2 (heterogeneous nuclear ribonucleoprotein H2),-2.07,active
LENG9 (leukocyte receptor cluster member 9),-0.0496,inactive
IL20 (interleukin 20),-1.29,active
DCAF11 (DDB1 and CUL4 associated factor 11),-1.32,active
CMTM8 (CKLF like MARVEL transmembrane domain containing 8),1.14,active
ITGB3BP (integrin subunit beta 3 binding protein),0.372,inactive
VAT1 (vesicle amine transport 1),-1.16,active
NUDT6 (nudix hydrolase 6),0.526,inactive
KRT20 (keratin 20),0.296,inactive
"RAB31 (RAB31, member RAS oncogene family)",-1.75,active
ITM2A (integral membrane protein 2A),0.768,inactive
UIMC1 (ubiquitin interaction motif containing 1),-1.6,active
CALHM4 (calcium homeostasis modulator family member 4),-2.14,active
VDR (vitamin D receptor),-2.92,active
LINC02872 (long independently transcribed non-coding RNA 2872),-1.1,active
ADRM1 (ADRM1 26S proteasome ubiquitin receptor),1.65,active
NR4A1 (nuclear receptor subfamily 4 group A member 1),-0.783,inactive
COMMD9 (COMM domain containing 9),0.681,inactive
ATXN1 (ataxin 1),0.925,inactive
SLC26A9,-0.742,inactive
ARHGAP25 (Rho GTPase activating protein 25),-0.558,inactive
AMOTL1 (angiomotin like 1),-0.234,inactive
SLC16A12,-0.457,inactive
TCEAL3 (transcription elongation factor A like 3),-0.467,inactive
AKR1C4 (aldo-keto reductase family 1 member C4),-2.18,active
UTY,-0.0204,inactive
ZNF483 (zinc finger protein 483),-0.37,inactive
ZNF540 (zinc finger protein 540),-0.672,inactive
LHX5 (LIM homeobox 5),0.893,inactive
NFRKB (nuclear factor related to kappaB binding protein),-0.878,inactive
KRTAP15-1 (keratin associated protein 15-1),-1.93,active
VASP (vasodilator stimulated phosphoprotein),-0.917,inactive
SLC28A3,1.2,active

16 entries from above, reformatted.
KRT20 (keratin 20) — z-score vs non-targeting control = 0.296; Outcome = inactive
RAB31 (RAB31, member RAS oncogene family) — z-score vs non-targeting control = -1.75; Outcome = active
ITM2A (integral membrane protein 2A) — z-score vs non-targeting control = 0.768; Outcome = inactive
UIMC1 (ubiquitin interaction motif containing 1) — z-score vs non-targeting control = -1.6; Outcome = active
CALHM4 (calcium homeostasis modulator family member 4) — z-score vs non-targeting control = -2.14; Outcome = active
VDR (vitamin D receptor) — z-score vs non-targeting control = -2.92; Outcome = active
LINC02872 (long independently transcribed non-coding RNA 2872) — z-score vs non-targeting control = -1.1; Outcome = active
ADRM1 (ADRM1 26S proteasome ubiquitin receptor) — z-score vs non-targeting control = 1.65; Outcome = active
NR4A1 (nuclear receptor subfamily 4 group A member 1) — z-score vs non-targeting control = -0.783; Outcome = inactive
COMMD9 (COMM domain containing 9) — z-score vs non-targeting control = 0.681; Outcome = inactive
ATXN1 (ataxin 1) — z-score vs non-targeting control = 0.925; Outcome = inactive
SLC26A9 — z-score vs non-targeting control = -0.742; Outcome = inactive
ARHGAP25 (Rho GTPase activating protein 25) — z-score vs non-targeting control = -0.558; Outcome = inactive
AMOTL1 (angiomotin like 1) — z-score vs non-targeting control = -0.234; Outcome = inactive
SLC16A12 — z-score vs non-targeting control = -0.457; Outcome = inactive
TCEAL3 (transcription elongation factor A like 3) — z-score vs non-targeting control = -0.467; Outcome = inactive

More entries follow.
gene,z-score vs non-targeting control,Outcome
PAX5 (paired box 5),-1.52,active
DAZAP2 (DAZ associated protein 2),-0.193,inactive
SYCP2 (synaptonemal complex protein 2),-1.05,active
CST2 (cystatin SA),-3.79,active
SLC25A22,-2.08,active
SLC6A19,0.635,inactive
FOXD1 (forkhead box D1),0.941,inactive
ZNF813 (zinc finger protein 813),-1.35,active
GPR88 (G protein-coupled receptor 88),-0.563,inactive
UNC5C (unc-5 netrin receptor C),0.609,inactive
TFAP2E (transcription factor AP-2 epsilon),-0.349,inactive
PNRC2 (proline rich nuclear receptor coactivator 2),-0.0015,inactive
SORT1 (sortilin 1),2.27,active
CSTB (cystatin B),-1.96,active
PARP12 (poly(ADP-ribose) polymerase family member 12),-0.377,inactive
TM6SF2 (transmembrane 6 superfamily member 2),-0.835,inactive
LYSMD2 (LysM domain containing 2),-0.522,inactive
LY6S-AS1 (LY6S antisense RNA 1),-2.06,active
EHD3 (EH domain containing 3),-0.812,inactive
OTUD6B (OTU deubiquitinase 6B),-1.16,active
MTSS2 (MTSS I-BAR domain containing 2),-1.22,active
LRP4 (LDL receptor related protein 4),-0.161,inactive
KLRB1 (killer cell lectin like receptor B1),-1.2,active
GANAB (glucosidase II alpha subunit),-0.743,inactive
CSKMT (citrate synthase lysine methyltransferase),-2.46,active
SLC26A8,-0.164,inactive
PRSS48 (serine protease 48),1.34,active
IFT54 (intraflagellar transport 54),-1.08,active
FSTL1 (follistatin like 1),-0.933,inactive
ZMYM5 (zinc finger MYM-type containing 5),0.819,inactive
UBAP2L (ubiquitin associated protein 2 like),-0.867,inactive
SHFL (shiftless antiviral inhibitor of ribosomal frameshifting),-0.604,inactive
ZNF195 (zinc finger protein 195),-0.84,inactive
ZRANB3 (zinc finger RANBP2-type containing 3),-2.36,active
RAD52 (RAD52 DNA repair protein),-0.639,inactive
GON4L (gon-4 like),-1.97,active
USP36 (ubiquitin specific peptidase 36),-0.751,inactive
BTF3 (basic transcription factor 3),1.5,active
SLC15A4,-0.806,inactive
TTC8 (tetratricopeptide repeat domain 8),0.64,inactive
CYRIB (CYFIP related Rac1 interactor B),0.727,inactive
RARRES2 (retinoic acid receptor responder 2),0.524,inactive
TMEM109 (transmembrane protein 109),0.959,inactive
CCDC152 (coiled-coil domain containing 152),-1.43,active
SLC75A1,-1.92,active
CFAP298 (cilia and flagella associated protein 298),-1.5,active
SPDYA (speedy/RINGO cell cycle regulator family member A),0.936,inactive
EXTL1 (exostosin like glycosyltransferase 1),2.83,active
VPS13C (vacuolar protein sorting 13 homolog C),-1.13,active
VWA5B1 (von Willebrand factor A domain containing 5B1),-0.536,inactive
ATXN3 (ataxin 3),-0.807,inactive
MLPH (melanophilin),0.496,inactive
AK8 (adenylate kinase 8),-0.916,inactive
ZKSCAN3 (zinc finger with KRAB and SCAN domains 3),-1.7,active
AMY1B (amylase alpha 1B),-0.812,inactive
PELI3 (pellino E3 ubiquitin protein ligase family member 3),0.82,inactive
ARMC12 (armadillo repeat containing 12),0.714,inactive
CPA5 (carboxypeptidase A5),1.4,active
CPLX1 (complexin 1),0.786,inactive
CABIN1 (calcineurin binding protein 1),0.402,inactive
PPRC1 (PPARG related coactivator 1),-1.63,active
